Protein sequences, listed by entry. Tags and fused reporters are not part of them.
UniProt P04775, whole entry: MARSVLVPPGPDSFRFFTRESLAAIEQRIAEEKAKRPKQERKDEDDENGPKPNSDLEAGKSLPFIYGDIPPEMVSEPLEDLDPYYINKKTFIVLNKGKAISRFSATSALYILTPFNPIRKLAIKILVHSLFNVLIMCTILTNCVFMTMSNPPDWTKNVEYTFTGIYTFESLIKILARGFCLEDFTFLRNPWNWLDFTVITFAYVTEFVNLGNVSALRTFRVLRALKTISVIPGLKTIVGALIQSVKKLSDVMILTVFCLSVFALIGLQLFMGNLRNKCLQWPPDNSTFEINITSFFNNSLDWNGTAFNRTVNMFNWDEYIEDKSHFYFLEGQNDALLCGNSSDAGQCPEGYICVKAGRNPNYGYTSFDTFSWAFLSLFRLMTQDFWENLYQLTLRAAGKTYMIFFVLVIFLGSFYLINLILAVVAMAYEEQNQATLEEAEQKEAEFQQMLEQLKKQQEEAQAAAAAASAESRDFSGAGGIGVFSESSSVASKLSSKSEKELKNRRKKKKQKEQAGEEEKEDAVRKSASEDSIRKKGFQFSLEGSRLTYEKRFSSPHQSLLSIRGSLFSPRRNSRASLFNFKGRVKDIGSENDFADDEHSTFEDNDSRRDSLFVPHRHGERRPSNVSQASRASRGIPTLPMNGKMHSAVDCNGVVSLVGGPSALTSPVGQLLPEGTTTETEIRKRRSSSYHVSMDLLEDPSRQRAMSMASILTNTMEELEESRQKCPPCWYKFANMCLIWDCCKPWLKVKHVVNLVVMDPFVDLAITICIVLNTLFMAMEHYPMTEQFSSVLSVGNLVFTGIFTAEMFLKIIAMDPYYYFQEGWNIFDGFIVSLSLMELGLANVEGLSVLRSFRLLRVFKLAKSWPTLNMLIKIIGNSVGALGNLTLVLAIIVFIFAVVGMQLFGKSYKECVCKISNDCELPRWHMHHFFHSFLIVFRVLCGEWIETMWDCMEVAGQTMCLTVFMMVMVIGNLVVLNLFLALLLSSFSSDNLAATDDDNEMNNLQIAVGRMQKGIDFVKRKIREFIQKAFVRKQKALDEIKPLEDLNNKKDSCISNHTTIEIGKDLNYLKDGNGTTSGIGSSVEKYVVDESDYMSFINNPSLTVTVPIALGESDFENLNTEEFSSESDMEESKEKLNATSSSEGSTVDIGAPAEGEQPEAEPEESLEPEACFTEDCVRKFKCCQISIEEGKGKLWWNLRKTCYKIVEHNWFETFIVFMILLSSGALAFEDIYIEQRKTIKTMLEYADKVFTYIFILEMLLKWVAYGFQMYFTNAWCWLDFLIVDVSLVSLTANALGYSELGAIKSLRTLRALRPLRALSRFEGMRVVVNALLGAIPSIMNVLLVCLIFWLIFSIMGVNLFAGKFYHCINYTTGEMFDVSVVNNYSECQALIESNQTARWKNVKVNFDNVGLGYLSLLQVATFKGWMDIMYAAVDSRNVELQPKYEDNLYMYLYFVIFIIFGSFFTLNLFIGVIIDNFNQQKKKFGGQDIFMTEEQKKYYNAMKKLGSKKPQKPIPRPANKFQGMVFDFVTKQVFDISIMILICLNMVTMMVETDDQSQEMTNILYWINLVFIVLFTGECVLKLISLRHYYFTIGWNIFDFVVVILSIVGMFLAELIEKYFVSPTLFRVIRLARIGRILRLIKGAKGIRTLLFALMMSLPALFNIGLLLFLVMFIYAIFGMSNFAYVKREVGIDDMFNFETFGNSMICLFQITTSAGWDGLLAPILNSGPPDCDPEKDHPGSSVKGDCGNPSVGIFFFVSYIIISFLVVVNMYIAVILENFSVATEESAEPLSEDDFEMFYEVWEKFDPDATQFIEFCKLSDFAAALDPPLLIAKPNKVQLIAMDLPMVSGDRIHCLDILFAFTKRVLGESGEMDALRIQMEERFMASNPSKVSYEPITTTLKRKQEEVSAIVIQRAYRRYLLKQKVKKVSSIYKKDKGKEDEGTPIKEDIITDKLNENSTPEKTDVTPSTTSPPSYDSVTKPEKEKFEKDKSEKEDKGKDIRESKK

According to ChEMBL document CHEMBL2401726, “Expanding chemical diversity of conotoxins: peptoid-peptide chimeras of the sodium channel blocker μ-KIIIA and its selenopeptide analogues” (2013):

What was measured:
[1] = target: Sodium channel protein type 2 subunit alpha (Rattus norvegicus) (UniProt P04775); assay: Inhibition of rat voltage-gated sodium channel Nav1.2-mediated current expressed in Xenopus laevis oocytes at 10 uM by two-electrode voltage-clamp electrophysiology relative to control; conditions: Oocyte
[2] = target: Sodium channel protein type 2 subunit alpha (Rattus norvegicus) (UniProt P04775); assay: Inhibition of rat voltage-gated sodium channel Nav1.2-mediated current expressed in Xenopus laevis oocytes at >10 uM by two-electrode voltage-clamp electrophysiology relative to control; conditions: Oocyte

Compound | inhibition [1] [%] | inhibition [2] [%]
CCCCN1CC(=O)N[C@@H](Cc2c[nH]c3ccccc23)C(=O)N[C@H]2CSSC[C@H](N)C(=O)N[C@H]3CSSC[C@H](NC(=O)[C@H](CCCNC(=N)N)NC(=O)[C@H](CO)NC(=O)[C@H](Cc4cnc[nH]4)NC(=O)[C@H](CC(=O)O)NC(=O)[C@H](CCCNC(=N)N)NC2=O)C(=O)N[C@H](C(N)=O)CSSC[C@H](NC(=O)[C@H](CC(N)=O)NC3=O)C(=O)N[C@@H](CO)C(=O)N[C@@H](CO)C1=O | 82 | –
CCCCCCCCN1CC(=O)N[C@@H](Cc2c[nH]c3ccccc23)C(=O)N[C@H]2CSSC[C@H](N)C(=O)N[C@H]3CSSC[C@H](NC(=O)[C@H](CCCNC(=N)N)NC(=O)[C@H](CO)NC(=O)[C@H](Cc4cnc[nH]4)NC(=O)[C@H](CC(=O)O)NC(=O)[C@H](CCCNC(=N)N)NC2=O)C(=O)N[C@H](C(N)=O)CSSC[C@H](NC(=O)[C@H](CC(N)=O)NC3=O)C(=O)N[C@@H](CO)C(=O)N[C@@H](CO)C1=O | 80 | –
CN1CC(=O)N[C@@H](Cc2c[nH]c3ccccc23)C(=O)N[C@H]2CSSC[C@H](N)C(=O)N[C@H]3CSSC[C@H](NC(=O)[C@H](CCCNC(=N)N)NC(=O)[C@H](CO)NC(=O)[C@H](Cc4cnc[nH]4)NC(=O)[C@H](CC(=O)O)NC(=O)[C@H](CCCNC(=N)N)NC2=O)C(=O)N[C@H](C(N)=O)CSSC[C@H](NC(=O)[C@H](CC(N)=O)NC3=O)C(=O)N[C@@H](CO)C(=O)N[C@@H](CO)C1=O | 69 | 70
